Drawing on paper PMC3688583, “Eubacterial SpoVG Homologs Constitute a New Family of Site-Specific DNA-Binding Proteins”, this text covers Kd for 1 sequence.

For this series, the target named is T1, SpoVGSa (Staphylococcus aureus) (UniProt Q7A7B5).
T1 sequence (looked up, limits assumed): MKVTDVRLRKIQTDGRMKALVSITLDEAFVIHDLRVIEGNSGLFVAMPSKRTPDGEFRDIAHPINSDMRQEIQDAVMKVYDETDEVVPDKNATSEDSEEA
Description: EMSA. Particulars: labeled cap probe; 50 mM Tris-HCl pH 7.5, 1 mM DTT, 150 nM EDTA, 50 ng/ml poly dI-dC, phosphatase and protease inhibitors; about 20 C; protein stocks in 50 mM Tris-HCl, 25 mM KCl; recombinant protein; protein details: 6xHis (pET101); label: 5' biotin as probe, unlabeled as competitor; probe letters rebuilt from the primers and the genome.

Construct, isoform or probe ends are uncertain for at least one entry. Where a protein sequence is shown, tags need not be part of it.

The Kd is the concentration at which binding is half-saturated. For the sequence “TATTTACCTCCCTTAAAAATTTTCATTAAAATTGGTATTATATATATAGTATTTACATATTACATATCGTTTAAACAATTAATTACTTTTAAACCGCATTATTTTCGCCTTTTTATTTATATGAAATTAAAAATAATTATACTCTAAAGTAGTAATAGTTTGTGAAATGAGTATCAATCTTAATATTTTCTTTATTTAAAAAAATGATTGTCTAGTTTGTATCTCTCTGAAGATTTGGCAATAAATAAAAGCCGATAACCGTATAATGATTATCGACTTAAAGTTTATGTGGCATTTTTTACTTTTGTAATTTCAGGTGAGTTAGATGATTATTATCAGATAG (double strand) [cap5 5' non-coding DNA]”, the Kd turned out to be 316 nM.
